The values below come from PMC8231256 (Molecules, 2021).

Strings that start with PEPTIDE1 are HELM notation: dots part the residues, brackets hold end groups and non-standard residues.

The nature of one data set: general procedure: Fmoc solid-phase peptide synthesis; 2-chlorotrityl chloride (CTC) resin (1.46 mmol/g, 100–200 mesh); for amides CTC resin modified with 1,6-diaminohexane li; DIC/HOBt; HATU/NMM for 6-heptynoic acid in N-methyl peptides. Particulars: late stage modification step.
“PEPTIDE1{[Hept6yn].[Val(Me)].[Val(Me)].[Val(Me)].[Ala(Me)].[Phe(Me)].[NH(CH2)6NH2]}$$$$V2.0” came in with a step yield of 14%.

Regarding “PEPTIDE1{[Hept6yn].[Val(Me)].[Val(Me)].[Val(Me)].[Ala(Me)].[Phe(Me)]}$$$$V2.0”, the step yield was 13%.

The same data set, now with this note: late stage modification step, analytical LC-MS, C18 Phenomenex Gemini, two solvent systems, purity at 214 nm.
As for “PEPTIDE1{[Hept6yn].[Val(Me)].[Val(Me)].[Val(Me)].[Ala(Me)].[Phe(Me)].[NH(CH2)6NH2]}$$$$V2.0”, the “final LC-MS purity” value is recorded as above 99%.

In the case of “PEPTIDE1{[Hept6yn].[Val(Me)].[Val(Me)].[Val(Me)].[Ala(Me)].[Phe(Me)]}$$$$V2.0”, the “final LC-MS purity” value is listed as above 99%.

Still in this data set, the particulars now being: whole synthesis.
Turning to “HCC(CH2)4CO-Agl(Me)-Val-Val(Me)-Ala-Phe(Me)-OH”, the isolated yield is recorded as 3%.

In the case of “HCC(CH2)4CO-Val-Val-Val-Agl-D-Phe-NH(CH2)6NH2”, the isolated yield was found to be 1%.

“PEPTIDE1{[Hept6yn].V.V.V.A.F.[NH(CH2)6NH2]}$$$$V2.0” registered an isolated yield of 3%.

PEPTIDE1{[Hept6yn].V.V.V.A.F}$$$$V2.0 had an isolated yield of 12%.

As to “PEPTIDE1{[Hept6yn].V.V.V.A.[Phe(Me)].[NH(CH2)6NH2]}$$$$V2.0”, the isolated yield was 2%.

For “PEPTIDE1{[Hept6yn].V.V.V.[Agl-Phe].[NH(CH2)6NH2]}$$$$V2.0”, the isolated yield is given as 1%.

In turn, “PEPTIDE1{[Hept6yn].V.V.V.[Ala(Me)].F.[NH(CH2)6NH2]}$$$$V2.0” displayed an isolated yield of 3%.

In turn, “PEPTIDE1{[Hept6yn].V.V.[Agl-Ala].F.[NH(CH2)6NH2]}$$$$V2.0” returned an isolated yield of 3%.

Regarding “PEPTIDE1{[Hept6yn].V.V.[Agl-Ala].F}$$$$V2.0”, the isolated yield is given as 3%.

The substance “PEPTIDE1{[Hept6yn].V.V.[Val(Me)].A.F.[NH(CH2)6NH2]}$$$$V2.0” yielded an isolated yield of 2%.

Staying with this data set, now noted: whole synthesis, 214 nm.
Regarding “HCC(CH2)4CO-Agl(Me)-Val-Val(Me)-Ala-Phe(Me)-OH”, the “final LC-MS purity” value is above 99%.

Turning to “HCC(CH2)4CO-Val-Val-Val-Agl-D-Phe-NH(CH2)6NH2”, the “final LC-MS purity” value is on record as above 94%.

On to “PEPTIDE1{[Hept6yn].V.V.V.A.F.[NH(CH2)6NH2]}$$$$V2.0”, for which the “final purity (method not given)” value is listed as above 99%.

As for PEPTIDE1{[Hept6yn].V.V.V.A.F}$$$$V2.0, the “final purity (method not given)” value was above 99%.

As to “PEPTIDE1{[Hept6yn].V.V.V.A.[Phe(Me)].[NH(CH2)6NH2]}$$$$V2.0”, the “final purity (method not given)” value was above 99%.

As to “PEPTIDE1{[Hept6yn].V.V.V.[Agl-Phe].[NH(CH2)6NH2]}$$$$V2.0”, the “final LC-MS purity” value is reported as above 92%.

For the substance “PEPTIDE1{[Hept6yn].V.V.V.[Ala(Me)].F.[NH(CH2)6NH2]}$$$$V2.0”, the “final purity (method not given)” value is above 99%.

Consider “PEPTIDE1{[Hept6yn].V.V.[Agl-Ala].F.[NH(CH2)6NH2]}$$$$V2.0”, for which the “final purity (method not given)” value is given as above 99%.

Turning to “PEPTIDE1{[Hept6yn].V.V.[Agl-Ala].F}$$$$V2.0”, the “final purity (method not given)” value was above 99%.

As for “PEPTIDE1{[Hept6yn].V.V.[Val(Me)].A.F.[NH(CH2)6NH2]}$$$$V2.0”, the “final purity (method not given)” value is given as above 99%.

With “PEPTIDE1{[Hept6yn].[Val(Me)].[Val(Me)].[Val(Me)].[Ala(Me)].[Phe(Me)].[NH(CH2)6NH2]}$$$$V2.0”, the “final purity (method not given)” value is given as above 99%.

“PEPTIDE1{[Hept6yn].[Val(Me)].[Val(Me)].[Val(Me)].[Ala(Me)].[Phe(Me)]}$$$$V2.0”: the “final purity (method not given)” value is above 99%.

Still in this data set, the particulars now being: whole synthesis, Method A (MeOH).
In the case of “HCC(CH2)4CO-Val-Val-Val-Agl-D-Phe-NH(CH2)6NH2”, the “purity (crude or final not stated)” value is “Purity ≥ 94%”.

Regarding “PEPTIDE1{[Hept6yn].V.V.V.[Agl-Phe].[NH(CH2)6NH2]}$$$$V2.0”, the “purity (crude or final not stated)” value is “Purity ≥ 92%”.

Staying with this data set, now noted: whole synthesis, Method B (MeOH).
Turning to “PEPTIDE1{[Hept6yn].V.V.V.A.F.[NH(CH2)6NH2]}$$$$V2.0”, the “purity (crude or final not stated)” value is given as “Purity ≥ 99%”.

For PEPTIDE1{[Hept6yn].V.V.V.A.F}$$$$V2.0, the “purity (crude or final not stated)” value was “Purity ≥ 99%”.

On to “PEPTIDE1{[Hept6yn].V.V.V.A.[Phe(Me)].[NH(CH2)6NH2]}$$$$V2.0”, for which the “purity (crude or final not stated)” value is listed as “Purity ≥ 99%”.

As for “PEPTIDE1{[Hept6yn].V.V.V.[Ala(Me)].F.[NH(CH2)6NH2]}$$$$V2.0”, the “purity (crude or final not stated)” value is “Purity ≥ 99%”.

Consider “PEPTIDE1{[Hept6yn].V.V.[Val(Me)].A.F.[NH(CH2)6NH2]}$$$$V2.0”, for which the “purity (crude or final not stated)” value is given as “Purity ≥ 99%”.

Consider “PEPTIDE1{[Hept6yn].[Val(Me)].[Val(Me)].[Val(Me)].[Ala(Me)].[Phe(Me)].[NH(CH2)6NH2]}$$$$V2.0”, for which the “purity (crude or final not stated)” value is reported as “Purity ≥ 99%”.

On to “PEPTIDE1{[Hept6yn].[Val(Me)].[Val(Me)].[Val(Me)].[Ala(Me)].[Phe(Me)]}$$$$V2.0”, for which the “purity (crude or final not stated)” value is “Purity ≥ 99%”.

Staying with this data set, now noted: whole synthesis, Method C (MeOH).
As for “HCC(CH2)4CO-Agl(Me)-Val-Val(Me)-Ala-Phe(Me)-OH”, the “purity (crude or final not stated)” value was “Purity ≥ 99%”.

In the case of “PEPTIDE1{[Hept6yn].V.V.[Agl-Ala].F.[NH(CH2)6NH2]}$$$$V2.0”, the “purity (crude or final not stated)” value is “Purity ≥ 99%”.

For “PEPTIDE1{[Hept6yn].V.V.[Agl-Ala].F}$$$$V2.0”, the “purity (crude or final not stated)” value is “Purity ≥ 99%”.

The same data set, now with this note: whole synthesis, Method D (MeCN).
“PEPTIDE1{[Hept6yn].V.V.V.[Agl-Phe].[NH(CH2)6NH2]}$$$$V2.0”: the “purity (crude or final not stated)” value is given as “Purity ≥ 99%”.

For the substance “PEPTIDE1{[Hept6yn].V.V.[Val(Me)].A.F.[NH(CH2)6NH2]}$$$$V2.0”, the “purity (crude or final not stated)” value was “Purity ≥ 98%”.

The same data set, now with this note: whole synthesis, analytical LC-MS, C18 Phenomenex Gemini, two solvent systems, purity at 214 nm.
For “HCC(CH2)4CO-Agl(Me)-Val-Val(Me)-Ala-Phe(Me)-OH”, the “final LC-MS purity” value was above 95%.

Consider “HCC(CH2)4CO-Val-Val-Val-Agl-D-Phe-NH(CH2)6NH2”, for which the “final LC-MS purity” value was above 95%.

Turning to “PEPTIDE1{[Hept6yn].V.V.V.A.F.[NH(CH2)6NH2]}$$$$V2.0”, the “final LC-MS purity” value was above 99%.

In the case of PEPTIDE1{[Hept6yn].V.V.V.A.F}$$$$V2.0, the “final LC-MS purity” value is given as above 99%.

With “PEPTIDE1{[Hept6yn].V.V.V.A.[Phe(Me)].[NH(CH2)6NH2]}$$$$V2.0”, the “final LC-MS purity” value was above 99%.

In the case of “PEPTIDE1{[Hept6yn].V.V.V.[Agl-Phe].[NH(CH2)6NH2]}$$$$V2.0”, the “final LC-MS purity” value was above 95%.

Consider “PEPTIDE1{[Hept6yn].V.V.V.[Ala(Me)].F.[NH(CH2)6NH2]}$$$$V2.0”, for which the “final LC-MS purity” value is reported as above 99%.

On to “PEPTIDE1{[Hept6yn].V.V.[Agl-Ala].F.[NH(CH2)6NH2]}$$$$V2.0”, for which the “final LC-MS purity” value is above 99%.

Turning to “PEPTIDE1{[Hept6yn].V.V.[Agl-Ala].F}$$$$V2.0”, the “final LC-MS purity” value is given as above 99%.

Turning to “PEPTIDE1{[Hept6yn].V.V.[Val(Me)].A.F.[NH(CH2)6NH2]}$$$$V2.0”, the “final LC-MS purity” value was above 99%.
